Test results taken from ChEMBL document CHEMBL4316619 (Bioorg Med Chem Lett, 2019).

Columns and labels:
Details in all cases: dog
[1] = Selectivity index, ratio of CC50 for cytotoxicity against MDCK cells to EC50 for Influenza A virus (A/California/7/2009(H1N1)) infected in MDCK cells
[2] = Selectivity index, ratio of CC50 for cytotoxicity against MDCK cells to EC50 for influenza A virus A/Vietnam/1203/2004 x A/PR/8/34 (H5N1) harboring recombinant NS1 infected in MDCK cells
[3] = Selectivity index, ratio of CC50 for cytotoxicity against MDCK cells to EC50 for Influenza A virus (A/Brisbane/10/2007(H3N2)) infected in MDCK cells
[4] = Selectivity index, ratio of compound effect for cytotoxicity against MDCK cells to IC90 for Influenza A virus A/PR/8/34 (H1N1) infected in MDCK cells

Row | Structure (SMILES) | Ratio CC50/EC50 [1] | Ratio CC50/EC50 [2] | Ratio CC50/EC50 [3] | Selectivity Index [4]
1 | CCOc1cc(-c2c(C#N)c(O)nc3c2c(C)nn3-c2ccc(F)cc2)ccc1O | > 29 | > 1 | > 1 | 
2 | COc1cc(-c2c(C#N)c(N)nc3c2c(C)nn3-c2ccc(F)cc2)ccc1O | 23 | 7 | 5 | 
3 | Cc1ccc(-n2nc(C)c3c(-c4ccc(O)c(O)c4)c(C#N)c(N)nc32)cc1C | 34 | < 1 | < 1 | 
4 | COc1cc(-c2ccnc3c2c(C)nn3-c2ccc(C(F)(F)F)cc2)ccc1O | 38 | < 1 | 2 | > 100
5 | COc1cc(-c2c(C#N)c(N)nc3c2c(C)nn3-c2ccc(F)cc2)cc(OC)c1OC | < 1 | < 1 | < 1 | 
6 | Cc1nn(-c2ccc(Cl)cc2)c2nc(N)c(C#N)c(-c3ccc(O)c(O)c3)c12 | < 1 | < 1 | < 1 | 
